A mixed list of measured activities; the numbers were collected in NIAID ChemDB.

All rows: tests in culture; species: Herpes simplex virus 2; cells: HEL; measure: EC50

Blank or dashed fields: not listed here. ECn: concentration that inhibits the pathogen or its effect by n%. Conditions beyond the fields shown may differ between rows.

compound	strain	read by	result
Cc1ccc(C)c(NC(=O)CN2C(=O)c3ccccc3S2(=O)=O)c1	G	cytopathic effect	>100 µM
O=c1[nH]c(=O)n([C@H]2C[C@H](O)[C@@H](CO)O2)cc1/C=C/Br	HS-47 (TK+)	cytopathic effect	>150 µM
O=c1[nH]c(=O)n([C@H]2C[C@H](O)[C@@H](CO)O2)cc1-c1ccc(Cl)s1	196	cytopathic effect	200 µg/mL
CCCCCCCC#Cc1cn(S(=O)(=O)c2ccc(C)cc2)c(=O)[nH]c1=O	G	cytopathic effect	>200 µM
Nc1nc2c(ncn2COCCO)c(=O)[nH]1	91075	plaque count	0.4 µM
OCCOCn1c(CCc2ccccn2)nc2ccccc21	-	cytopathic effect	>100 µg/mL
O=C(O)CP(=O)(O)O	UW/TK-	plaque count	76 µM
CC(C)NS(=O)(=O)c1ccccc1C(=O)N/N=C/c1ccc(-c2cccs2)cc1	G	cytopathic effect	>100 µM
CCCCC#Cc1c[nH]c(=O)[nH]c1=O	G	cytopathic effect	>200 µM
COC(=O)[C@H]1NC(=O)[C@H]2NC(=O)[C@H](NC(=O)[C@@H]3NC(=O)[C@H]4NC(=O)[C@H](NC(=O)[C@H](N)c5ccc(O)c(c5)Oc5cc4cc(O)c5C)[C@H](O)c4ccc(cc4)Oc4cc3cc(c4O)Oc3ccc(cc3)[C@H]2O[C@@H]2C[C@@H](N)[C@@H](O)[C@H](C)O2)c2ccc(O)c(c2)-c2c(O)cc(O)cc21	G	cytopathic effect	>200 µM
Nc1nc2c(ncn2C[C@@H](CO)CCO)c(=O)[nH]1	R37	cytopathic effect / ELISA	2 µM
Nc1nc2c(ncn2CCCCO)c(=O)[nH]1	91075	plaque count	6 µM
Nc1nc2c(ncn2C/C=C\CO)c(=O)[nH]1	91075	plaque count	16 µM
CCCCCC#Cc1c[nH]c(=O)[nH]c1=O	G	cytopathic effect	>200 µM
Nc1nc2c(ncn2CC(CO)CCO)c(=O)[nH]1	R37	cytopathic effect / ELISA	32 µM
Nc1nc2c(ncn2CCC(CO)CO)c(=O)[nH]1	20 clinical isolates	ELISA	2.2 µg/mL
CCOP(=O)(CCCN1CC(Cn2c(=O)n(C(=O)c3ccccc3)c(=O)c3ccccc32)N=N1)OCC	-	cytopathic effect	17 µM
O=C(O)C(O[C@@H]1C=C[C@H](n2cc(F)c(=O)[nH]c2=O)C1)P(=O)(O)O	G	cytopathic effect	>250 µM
S=c1[nH]n2c(-c3cn(-c4ccccc4)nc3-c3ccccc3)nnc2s1	G	cytopathic effect	>80 µg/mL
Cc1c(-c2ccc(F)cc2)[nH]c2nc3c(ncn3COCCO)c(=O)n12	LYONS	cytopathic effect	1.92 µg/mL
CCCCCCCC#Cc1c[nH]c(=O)[nH]c1=O	G	cytopathic effect	>40 µM
OCCOCn1c(CCc2ccccn2)nc2cc(Cl)c(Cl)cc21	-	cytopathic effect	>100 µg/mL
c1ccc(C2=Nn3c(nnc3-c3cn(-c4ccccc4)nc3-c3ccccc3)SC2)cc1	G	cytopathic effect	>3.2 µg/mL
Nc1nc2c(ncn2CCC(CO)CO)c(=O)[nH]1	186	plaque count	2.7 µg/mL
Cc1nn2c(-c3cn(-c4ccccc4)nc3-c3ccccc3)nnc2s1	G	cytopathic effect	>16 µg/mL
Nc1nc2c(ncn2CC(CO)CCO)c(=O)[nH]1	91075	plaque count	23 µM
OC[C@H]1O[C@@H](n2c(CCc3ccccn3)nc3cc(Cl)c(Cl)cc32)[C@H](O)[C@@H]1O	-	cytopathic effect	>100 µg/mL
O=c1c2ncn(COC(CO)CO)c2nc2[nH]c(-c3ccc(F)cc3)cn12	G	cytopathic effect	1.92 µg/mL
O=C(O)P(=O)(O)O	HS-44 (TK-)	cytopathic effect	47 µM
CCOC(=O)Sc1nnc(-c2cn(-c3ccccc3)nc2-c2ccccc2)n1N	G	cytopathic effect	>16 µg/mL
Nc1nc2c(ncn2COC(CO)CO)c(=O)[nH]1	G	cytopathic effect	0.03 µM
Cc1c(-c2ccc(C(F)(F)F)cc2)[nH]c2nc3c(ncn3COCCO)c(=O)n12	196	cytopathic effect	9.6 µg/mL
O=c1[nH]c(=O)n([C@@H]2O[C@H](CO)[C@@H](O)[C@@H]2O)cc1/C=C/Br	UW-268	plaque count	230 µM
Nc1ccn(C[C@@H](CO)OCP(=O)(O)O)c(=O)n1	G	plaque count	0.4 µM
Nc1nc2c(ncn2CCCC(CO)CO)c(=O)[nH]1	R37	cytopathic effect / ELISA	15.2 µM
OCCOCn1c(SCc2ccccn2)nc2ccccc21	-	cytopathic effect	>100 µg/mL

The first 5 rows once more:

{"compound": "Cc1ccc(C)c(NC(=O)CN2C(=O)c3ccccc3S2(=O)=O)c1", "strain": "G", "read by": "cytopathic effect", "result": ">100 µM"}
{"compound": "O=c1[nH]c(=O)n([C@H]2C[C@H](O)[C@@H](CO)O2)cc1/C=C/Br", "strain": "HS-47 (TK+)", "read by": "cytopathic effect", "result": ">150 µM"}
{"compound": "O=c1[nH]c(=O)n([C@H]2C[C@H](O)[C@@H](CO)O2)cc1-c1ccc(Cl)s1", "strain": "196", "read by": "cytopathic effect", "result": "200 µg/mL"}
{"compound": "CCCCCCCC#Cc1cn(S(=O)(=O)c2ccc(C)cc2)c(=O)[nH]c1=O", "strain": "G", "read by": "cytopathic effect", "result": ">200 µM"}
{"compound": "Nc1nc2c(ncn2COCCO)c(=O)[nH]1", "strain": "91075", "read by": "plaque count", "result": "0.4 µM"}